Source: patent US9340590B2, “Potent and selective inhibitors of NaV1.3 and NaV1.7” (priority 2011, dated 2016)

By UniProt entry, the sequences of proteins in these tests, tags left out.
UniProt Q14524, whole entry, looked up: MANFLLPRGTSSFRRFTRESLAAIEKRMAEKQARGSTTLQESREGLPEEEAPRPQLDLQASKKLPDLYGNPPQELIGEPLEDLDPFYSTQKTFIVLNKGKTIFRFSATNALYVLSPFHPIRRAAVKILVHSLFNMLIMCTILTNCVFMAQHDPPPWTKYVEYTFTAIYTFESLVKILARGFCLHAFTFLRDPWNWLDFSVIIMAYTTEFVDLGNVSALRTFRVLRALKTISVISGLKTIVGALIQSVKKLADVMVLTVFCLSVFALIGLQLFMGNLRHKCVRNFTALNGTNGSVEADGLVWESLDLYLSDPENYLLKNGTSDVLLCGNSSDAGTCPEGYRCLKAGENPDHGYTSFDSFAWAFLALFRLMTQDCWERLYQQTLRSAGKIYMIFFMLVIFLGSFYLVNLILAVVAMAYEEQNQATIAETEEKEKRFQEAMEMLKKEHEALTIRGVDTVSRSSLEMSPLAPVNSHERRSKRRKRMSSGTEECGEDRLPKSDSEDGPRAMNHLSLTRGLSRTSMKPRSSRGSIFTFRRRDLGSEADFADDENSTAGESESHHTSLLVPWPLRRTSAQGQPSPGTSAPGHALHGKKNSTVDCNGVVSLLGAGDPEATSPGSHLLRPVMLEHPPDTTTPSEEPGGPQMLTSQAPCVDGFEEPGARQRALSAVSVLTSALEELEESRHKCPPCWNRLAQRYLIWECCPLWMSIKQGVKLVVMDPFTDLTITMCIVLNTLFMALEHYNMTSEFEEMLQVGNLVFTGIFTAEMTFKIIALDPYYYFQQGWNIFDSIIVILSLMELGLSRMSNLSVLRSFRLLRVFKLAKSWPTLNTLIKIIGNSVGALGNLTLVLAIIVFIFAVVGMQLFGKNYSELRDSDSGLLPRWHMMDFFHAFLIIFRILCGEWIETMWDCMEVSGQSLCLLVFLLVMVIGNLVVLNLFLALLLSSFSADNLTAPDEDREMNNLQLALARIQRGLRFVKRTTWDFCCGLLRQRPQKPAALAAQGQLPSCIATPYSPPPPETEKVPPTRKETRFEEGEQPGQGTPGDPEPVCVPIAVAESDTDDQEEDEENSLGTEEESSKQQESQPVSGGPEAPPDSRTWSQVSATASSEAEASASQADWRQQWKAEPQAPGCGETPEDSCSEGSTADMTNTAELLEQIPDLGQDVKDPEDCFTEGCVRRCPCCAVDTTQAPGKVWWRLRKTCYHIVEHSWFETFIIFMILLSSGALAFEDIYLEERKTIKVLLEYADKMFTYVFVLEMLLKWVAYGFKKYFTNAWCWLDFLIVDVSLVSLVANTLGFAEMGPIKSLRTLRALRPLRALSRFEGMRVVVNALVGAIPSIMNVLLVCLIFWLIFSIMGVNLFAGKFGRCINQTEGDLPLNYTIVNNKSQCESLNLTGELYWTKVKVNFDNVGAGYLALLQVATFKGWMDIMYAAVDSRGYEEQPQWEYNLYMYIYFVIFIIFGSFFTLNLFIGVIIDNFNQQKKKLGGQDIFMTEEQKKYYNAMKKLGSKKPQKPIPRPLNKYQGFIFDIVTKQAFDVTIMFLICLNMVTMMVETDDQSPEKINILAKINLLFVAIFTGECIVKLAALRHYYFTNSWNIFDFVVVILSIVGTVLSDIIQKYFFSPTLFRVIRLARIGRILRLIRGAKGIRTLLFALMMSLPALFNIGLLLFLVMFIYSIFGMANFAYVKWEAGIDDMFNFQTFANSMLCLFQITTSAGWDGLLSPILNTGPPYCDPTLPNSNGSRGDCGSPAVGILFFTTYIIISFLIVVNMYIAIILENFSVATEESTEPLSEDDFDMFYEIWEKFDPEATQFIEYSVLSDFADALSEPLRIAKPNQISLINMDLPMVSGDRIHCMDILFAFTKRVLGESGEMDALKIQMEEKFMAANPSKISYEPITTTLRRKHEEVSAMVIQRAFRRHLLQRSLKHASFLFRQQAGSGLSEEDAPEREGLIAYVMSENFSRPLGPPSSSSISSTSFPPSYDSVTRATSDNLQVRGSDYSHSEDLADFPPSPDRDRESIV
UniProt Q9NY46, whole entry, looked up: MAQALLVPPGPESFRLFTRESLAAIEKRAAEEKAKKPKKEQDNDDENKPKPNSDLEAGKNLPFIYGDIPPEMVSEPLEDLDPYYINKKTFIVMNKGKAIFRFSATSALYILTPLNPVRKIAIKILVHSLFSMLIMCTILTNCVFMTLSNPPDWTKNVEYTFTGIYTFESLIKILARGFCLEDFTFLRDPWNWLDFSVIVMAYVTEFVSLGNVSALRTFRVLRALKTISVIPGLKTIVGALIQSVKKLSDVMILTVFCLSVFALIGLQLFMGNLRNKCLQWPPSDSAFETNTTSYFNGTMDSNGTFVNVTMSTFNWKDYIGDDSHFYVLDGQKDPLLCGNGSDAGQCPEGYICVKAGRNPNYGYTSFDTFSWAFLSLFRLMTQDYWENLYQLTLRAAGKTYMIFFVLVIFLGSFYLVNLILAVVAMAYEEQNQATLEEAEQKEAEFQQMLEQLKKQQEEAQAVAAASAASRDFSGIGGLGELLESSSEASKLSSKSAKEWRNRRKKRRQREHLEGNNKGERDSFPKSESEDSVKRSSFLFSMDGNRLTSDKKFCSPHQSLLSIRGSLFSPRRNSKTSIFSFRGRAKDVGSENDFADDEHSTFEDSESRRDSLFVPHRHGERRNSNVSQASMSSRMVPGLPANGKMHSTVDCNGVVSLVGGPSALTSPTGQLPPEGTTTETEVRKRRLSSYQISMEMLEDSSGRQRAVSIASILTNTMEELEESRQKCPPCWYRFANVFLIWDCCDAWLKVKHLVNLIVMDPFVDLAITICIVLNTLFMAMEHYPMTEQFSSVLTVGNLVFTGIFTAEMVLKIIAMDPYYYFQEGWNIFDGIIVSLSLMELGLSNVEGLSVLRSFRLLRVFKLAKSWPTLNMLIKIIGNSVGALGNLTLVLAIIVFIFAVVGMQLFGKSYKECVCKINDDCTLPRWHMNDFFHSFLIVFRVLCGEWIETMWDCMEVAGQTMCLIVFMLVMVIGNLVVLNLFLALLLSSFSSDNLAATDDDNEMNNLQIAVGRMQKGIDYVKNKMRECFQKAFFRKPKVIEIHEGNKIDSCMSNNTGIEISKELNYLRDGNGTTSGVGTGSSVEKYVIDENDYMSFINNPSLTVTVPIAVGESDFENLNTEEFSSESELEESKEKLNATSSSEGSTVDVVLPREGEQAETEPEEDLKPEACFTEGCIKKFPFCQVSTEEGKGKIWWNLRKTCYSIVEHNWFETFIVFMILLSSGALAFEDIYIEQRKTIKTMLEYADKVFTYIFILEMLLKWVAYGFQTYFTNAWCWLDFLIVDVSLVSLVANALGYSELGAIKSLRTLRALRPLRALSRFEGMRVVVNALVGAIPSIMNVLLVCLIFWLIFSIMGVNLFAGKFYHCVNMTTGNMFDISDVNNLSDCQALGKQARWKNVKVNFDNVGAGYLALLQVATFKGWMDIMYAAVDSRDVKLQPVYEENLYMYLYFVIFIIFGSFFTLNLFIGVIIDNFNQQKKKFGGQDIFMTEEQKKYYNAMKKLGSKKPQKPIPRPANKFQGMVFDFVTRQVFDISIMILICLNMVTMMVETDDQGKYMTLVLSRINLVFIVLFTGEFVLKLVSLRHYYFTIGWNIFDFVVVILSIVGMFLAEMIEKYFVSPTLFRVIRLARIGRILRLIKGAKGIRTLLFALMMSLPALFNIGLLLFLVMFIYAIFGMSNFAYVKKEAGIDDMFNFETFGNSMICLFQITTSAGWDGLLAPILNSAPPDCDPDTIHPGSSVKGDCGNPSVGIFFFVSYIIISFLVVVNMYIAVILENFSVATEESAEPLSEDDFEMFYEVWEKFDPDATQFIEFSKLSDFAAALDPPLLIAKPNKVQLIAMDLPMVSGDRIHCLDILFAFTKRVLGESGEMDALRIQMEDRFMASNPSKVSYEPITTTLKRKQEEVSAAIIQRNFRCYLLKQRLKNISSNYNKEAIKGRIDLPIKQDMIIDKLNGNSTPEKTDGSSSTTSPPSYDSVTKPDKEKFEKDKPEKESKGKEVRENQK
UniProt P35499, whole entry, looked up: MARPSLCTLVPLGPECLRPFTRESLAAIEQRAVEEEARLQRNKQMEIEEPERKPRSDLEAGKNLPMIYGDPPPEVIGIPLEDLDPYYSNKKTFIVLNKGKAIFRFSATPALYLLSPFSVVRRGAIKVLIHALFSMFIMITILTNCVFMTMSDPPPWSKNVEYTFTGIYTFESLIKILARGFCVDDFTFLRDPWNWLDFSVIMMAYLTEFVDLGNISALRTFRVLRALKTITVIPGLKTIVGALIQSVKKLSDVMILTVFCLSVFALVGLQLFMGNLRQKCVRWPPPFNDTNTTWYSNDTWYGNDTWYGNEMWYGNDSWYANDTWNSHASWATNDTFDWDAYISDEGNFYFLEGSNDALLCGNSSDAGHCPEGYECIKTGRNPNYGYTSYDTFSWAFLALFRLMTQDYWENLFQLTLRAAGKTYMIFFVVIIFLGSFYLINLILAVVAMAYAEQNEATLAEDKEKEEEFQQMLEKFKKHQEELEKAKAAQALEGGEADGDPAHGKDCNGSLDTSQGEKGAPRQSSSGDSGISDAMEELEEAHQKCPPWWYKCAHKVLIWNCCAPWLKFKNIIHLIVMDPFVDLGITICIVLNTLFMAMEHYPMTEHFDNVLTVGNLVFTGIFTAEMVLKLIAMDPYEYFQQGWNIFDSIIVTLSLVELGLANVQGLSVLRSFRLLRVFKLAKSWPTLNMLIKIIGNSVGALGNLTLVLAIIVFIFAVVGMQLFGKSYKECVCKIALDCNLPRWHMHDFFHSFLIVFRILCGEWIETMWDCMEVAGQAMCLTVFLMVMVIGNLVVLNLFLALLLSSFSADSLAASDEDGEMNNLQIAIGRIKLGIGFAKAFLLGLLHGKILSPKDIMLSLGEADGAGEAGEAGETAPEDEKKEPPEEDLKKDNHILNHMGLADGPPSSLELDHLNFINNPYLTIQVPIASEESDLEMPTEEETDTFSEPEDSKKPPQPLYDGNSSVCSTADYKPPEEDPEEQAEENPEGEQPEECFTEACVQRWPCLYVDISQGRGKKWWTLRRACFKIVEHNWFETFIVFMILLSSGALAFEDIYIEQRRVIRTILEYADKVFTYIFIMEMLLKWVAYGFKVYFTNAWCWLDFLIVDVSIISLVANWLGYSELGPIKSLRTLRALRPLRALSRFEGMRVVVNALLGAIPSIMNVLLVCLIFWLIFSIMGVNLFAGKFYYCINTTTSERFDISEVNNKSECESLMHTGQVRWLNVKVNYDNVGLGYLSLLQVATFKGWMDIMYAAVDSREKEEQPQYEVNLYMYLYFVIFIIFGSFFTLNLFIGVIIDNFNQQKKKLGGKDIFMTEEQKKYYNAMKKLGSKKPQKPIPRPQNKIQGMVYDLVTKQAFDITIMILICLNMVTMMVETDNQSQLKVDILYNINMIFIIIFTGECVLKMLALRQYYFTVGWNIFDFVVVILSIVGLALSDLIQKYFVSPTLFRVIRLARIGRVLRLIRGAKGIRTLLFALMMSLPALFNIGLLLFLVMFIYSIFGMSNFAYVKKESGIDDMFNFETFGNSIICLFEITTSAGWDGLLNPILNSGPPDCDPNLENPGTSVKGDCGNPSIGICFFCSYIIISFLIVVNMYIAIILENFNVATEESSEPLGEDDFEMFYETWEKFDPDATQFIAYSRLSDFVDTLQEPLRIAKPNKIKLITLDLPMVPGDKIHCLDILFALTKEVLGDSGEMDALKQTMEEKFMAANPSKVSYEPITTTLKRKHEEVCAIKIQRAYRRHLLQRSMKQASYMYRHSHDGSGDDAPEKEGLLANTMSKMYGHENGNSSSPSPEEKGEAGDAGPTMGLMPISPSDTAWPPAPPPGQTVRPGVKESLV

Assays:
[1] = target: hNav1.5 (Homo sapiens, UniProt Q14524); settings: ratio of Use IC50 values
[2] = target: hNav1.3 (Homo sapiens, UniProt Q9NY46); settings: ratio of Use IC50 values, Nav1.3 over Nav1.7
[3] = target: hNav1.4 (Homo sapiens, UniProt P35499); settings: ratio of Use IC50 values

Compound: N=C(N)NCCC[C@@H]1NC(=O)[C@H](CO)NC(=O)[C@H](Cc2c[nH]cn2)NC(=O)[C@H](CC(=O)O)NC(=O)[C@H](CCCNC(=N)N)NC(=O)[C@@H]2CSSC[C@H](N)C(=O)N[C@H]3CSSC[C@@H](C(N)=O)NC(=O)[C@H](CSSC[C@H](NC(=O)[C@H](CC(N)=O)NC3=O)C(=O)N[C@@H](CO)C(=O)N[C@@H](CO)C(=O)N[C@@H](CCCCN)C(=O)N[C@@H](Cc3c[nH]c4ccccc34)C(=O)N2)NC1=O
- Nav1.5/Nav1.3 Use ([1]; Nav1.5 over Nav1.3): 0
- Nav1.5/Nav1.7 Use ([1]; Nav1.5 over Nav1.7): 0
- Nav1.3/Nav1.7 Use [2]: 4.0
- Nav1.4/Nav1.3 Use ([3]; Nav1.4 over Nav1.3): 0
- Nav1.4/Nav1.7 Use ([3]; Nav1.4 over Nav1.7): 0
